Paper PMC3396687 (PLoS ONE, 2012)

Assay: Circular dichroism, secondary structure content
Format: physicochemical
Conditions: 50% TFE, far-UV CD, original and water-subtracted spectra deconvoluted with CDPro, CDNN, KJ2D; 0.3 mg/mL

Compound: CSCC[C@H](NC(=O)[C@@H]1CCCN1C(=O)[C@H](CCC(N)=O)NC(=O)CNC(=O)[C@@H]1CCCN1C(=O)[C@H](CCCCN)NC(=O)[C@H](CC(C)C)NC(=O)[C@H](CCC(N)=O)NC(=O)[C@H](CC(C)C)NC(=O)[C@H](Cc1c[nH]c2ccccc12)NC(=O)[C@H](Cc1c[nH]cn1)NC(=O)[C@H](Cc1c[nH]c2ccccc12)NC(=O)[C@H](Cc1ccccc1)NC(=O)[C@H](CCCNC(=N)N)NC(=O)[C@H](CC(N)=O)NC(=O)[C@H](CC(C)C)NC(=O)[C@H](Cc1ccccc1)NC(=O)[C@@H](N)CCCCN)C(=O)N[C@@H](Cc1ccc(O)cc1)C(=O)O [IP1]
- α-helix content: 75–90%

Compound: KFWKRFWHWLQLKPGQPMY [IP3, 19-residue Iztli peptide]
- α-helix content: up to 70%

Compound: RRLKDFWHWLQLKPGQPMY [IP2, 19-residue Iztli peptide: α-pheromone with 6 residues added at the N-terminus]
- α-helix content: 75–90%

Compound: RKLQKFWHWLQLKPGQPMY [IP4, 19-residue Iztli peptide]
- α-helix content: up to 70%
